Data published in patent US20240226228A1, “ANTIMICROBIAL PEPTOID HAVING IMPROVED SELECTIVITY AND ANTIMICROBIAL COMPOSITION COMPRISING SAME” (priority 2021, published 2024).
Where a SMILES comes first, the peptide text is derived from it. [ ]: non-standard residue; d: D form. Gly(N(CH2)2(3-indolyl)) = O=C(O)CNCCc1c[nH]c2ccccc12; Gly(N-CH2CH2-imidazol-4-yl) = O=C(O)CNCCc1c[nH]cn1; Nspe = C[C@H](NCC(=O)O)c1ccccc1; Nlys = NCCCCNCC(=O)O

tested on: red blood cells / E. coli; test: Analysis of selectivity of peptoid (HD10 divided by MIC against E. coli); details: HD10 divided by MIC against E. coli

Structure (SMILES) | Selectivity
C[C@@H](c1ccccc1)N(CC(=O)N(CCc1c[nH]cn1)CC(=O)N(CCc1c[nH]c2ccccc12)CC(=O)N(CCc1c[nH]c2ccccc12)CC(N)=O)C(=O)CN(CCCCN)C(=O)CN(CCCCN)C(=O)CN(C(=O)CN(C(=O)CN(CCCCN)C(=O)CN(C(=O)CN(C(=O)CNCCCCN)[C@@H](C)c1ccccc1)[C@@H](C)c1ccccc1)[C@@H](C)c1ccccc1)[C@@H](C)c1ccccc1 [Peptoid 77] (H-[Nlys][Nspe][Nspe][Nlys][Nspe][Nspe][Nlys][Nlys][Nspe][Gly(N-CH2CH2-imidazol-4-yl)][Gly(N(CH2)2(3-indolyl))][Gly(N(CH2)2(3-indolyl))]-NH2) | >8.0
C[C@@H](c1ccccc1)N(CC(=O)N(CCCCN)CC(=O)N(CCc1c[nH]c2ccccc12)CC(=O)N(CCc1c[nH]c2ccccc12)CC(N)=O)C(=O)CN(CCc1c[nH]cn1)C(=O)CN(CCCCN)C(=O)CN(C(=O)CN(C(=O)CN(CCCCN)C(=O)CN(C(=O)CN(C(=O)CNCCCCN)[C@@H](C)c1ccccc1)[C@@H](C)c1ccccc1)[C@@H](C)c1ccccc1)[C@@H](C)c1ccccc1 [Peptoid 78] (H-[Nlys][Nspe][Nspe][Nlys][Nspe][Nspe][Nlys][Gly(N-CH2CH2-imidazol-4-yl)][Nspe][Nlys][Gly(N(CH2)2(3-indolyl))][Gly(N(CH2)2(3-indolyl))]-NH2) | >15.9
C[C@@H](c1ccccc1)N(CC(=O)N(CCCCN)CC(=O)N(CCc1c[nH]c2ccccc12)CC(=O)N(CCc1c[nH]c2ccccc12)CC(N)=O)C(=O)CN(CCCCN)C(=O)CN(CCc1c[nH]cn1)C(=O)CN(C(=O)CN(C(=O)CN(CCCCN)C(=O)CN(C(=O)CN(C(=O)CNCCCCN)[C@@H](C)c1ccccc1)[C@@H](C)c1ccccc1)[C@@H](C)c1ccccc1)[C@@H](C)c1ccccc1 [Peptoid 79] (H-[Nlys][Nspe][Nspe][Nlys][Nspe][Nspe][Gly(N-CH2CH2-imidazol-4-yl)][Nlys][Nspe][Nlys][Gly(N(CH2)2(3-indolyl))][Gly(N(CH2)2(3-indolyl))]-NH2) | >15.9
C[C@@H](c1ccccc1)N(CC(=O)N(CCCCN)CC(=O)N(CCc1c[nH]c2ccccc12)CC(=O)N(CCc1c[nH]c2ccccc12)CC(N)=O)C(=O)CN(CCCCN)C(=O)CN(CCCCN)C(=O)CN(C(=O)CN(C(=O)CN(CCc1c[nH]cn1)C(=O)CN(C(=O)CN(C(=O)CNCCCCN)[C@@H](C)c1ccccc1)[C@@H](C)c1ccccc1)[C@@H](C)c1ccccc1)[C@@H](C)c1ccccc1 [Peptoid 80] (H-[Nlys][Nspe][Nspe][Gly(N-CH2CH2-imidazol-4-yl)][Nspe][Nspe][Nlys][Nlys][Nspe][Nlys][Gly(N(CH2)2(3-indolyl))][Gly(N(CH2)2(3-indolyl))]-NH2) | >8.0
C[C@@H](c1ccccc1)N(CC(=O)N(CCCCN)CC(=O)N(CCc1c[nH]c2ccccc12)CC(=O)N(CCc1c[nH]c2ccccc12)CC(N)=O)C(=O)CN(CCCCN)C(=O)CN(CCCCN)C(=O)CN(C(=O)CN(C(=O)CN(CCCCN)C(=O)CN(C(=O)CN(C(=O)CNCCc1c[nH]cn1)[C@@H](C)c1ccccc1)[C@@H](C)c1ccccc1)[C@@H](C)c1ccccc1)[C@@H](C)c1ccccc1 [Peptoid 81] (H-[Gly(N-CH2CH2-imidazol-4-yl)][Nspe][Nspe][Nlys][Nspe][Nspe][Nlys][Nlys][Nspe][Nlys][Gly(N(CH2)2(3-indolyl))][Gly(N(CH2)2(3-indolyl))]-NH2) | >15.9
